Results of unrelated studies side by side (data: NIAID ChemDB).

Common to all: whole-cell or culture tests; organism: Mycobacterium tuberculosis

An empty or dashed field is not shown.

| compound | cells | strain | tested at | conditions | method | changes | measure | result |
|---|---|---|---|---|---|---|---|---|
| NC(=O)c1ncc(-c2ccc(Cl)cc2)[nH]c1=O | - | H37Rv | - | - | BACTEC | - | MIC bound | >12.5 µg/mL |
| O=C(Nc1ccc(C(F)(F)F)cc1)c1cc(Cl)ccc1OP(=O)(c1ccccc1)c1ccccc1 | - | Praha 4 | - | 14 d | - | - | MIC | 1 µM |
| O=C1Nc2cnc(Cl)nc2Nc2cc(Cl)ccc21 | - | H37Rv | 12.5 µg/mL | - | BACTEC | - | inhibition | 0% |
| NNC(=O)c1ccncc1 | - | Isolate UT2883 (katG S315T mutation) | - | - | - | - | MIC | 8 µg/mL |
| COC(=O)c1cc(C2CCCCC2)nc2ccccc12 | - | H37Rv | 6.25 µg/mL | - | - | - | inhibition | 3% |
| C(=N\N1CCN(/N=C/c2ccccc2)C1c1ccccc1)/c1ccccc1 | - | H37Rv | 12.5 µg/mL | - | BACTEC | - | inhibition | 0% |
| Cc1ccc(-c2cs/c(=N\NC(=O)COc3cnccn3)n2-c2ccc(Cl)cc2Cl)cc1 | - | H37Rv | - | - | - | - | MIC | 21 µg/mL |
| Cc1nnc2c([N+](=O)[O-])c(N)c(Cl)nn12 | - | H37Rv | 12.5 µg/mL | - | BACTEC | - | inhibition | 61% |
| COc1ccc(-c2cc(=O)c3ccccc3o2)cc1 | - | H37Rv | - | - | - | - | MIC | >12.5 µg/mL |
| C=C(C)/C=C/[C@]12C[C@H](C)[C@H]3CC[C@](C)(NC)[C@@H](CC[C@H]1C)[C@@H]32 | - | H37Rv | 8 µg/mL | - | - | - | inhibition | 7% |
| O=C1c2cc(Cl)ccc2OP(=O)(c2ccccc2)N1c1ccc(C(F)(F)F)cc1 | - | Praha 4 | - | 14 d | - | - | MIC | 1 µM |
| COc1cc(C)c(/C=C2/NC(=S)NC2=O)cc1C | - | H37Rv | - | - | BACTEC | - | EC50 | >6.25 µg/mL |
| Cc1ccc(C(=O)Oc2ccc(/C=C3\CCCCC3=O)cc2)cc1 | - | H37Rv | - | - | - | - | EC50 | <12.5 µg/mL |
| COC(=O)c1csc(C2OC(CO)C(O)C2O)n1 | - | H37Rv | - | - | BACTEC | - | MIC bound | >12.5 µg/mL |
| Cc1c(N2C[C@@H](N)C3(CC3)C2)c(F)cc2c(=O)c(C(=O)O)cn([C@@H]3C[C@@H]3F)c12 | - | 68 (RFP-susceptible) | - | - | - | - | MIC | 0.05 µg/mL |
| N#Cc1ncc(C(Cl)Cl)nc1Cl | - | H37Rv | - | - | BACTEC | - | MIC | ≥12.5 µg/mL |
| O=C1NC(=S)N/C1=C/c1ccc(-c2ccccc2)cc1 | - | H37Rv | - | - | BACTEC | - | EC50 | <6.25 µg/mL |
| O=c1cc(-c2ccc(Cl)cc2)oc2ccccc12 | - | H37Rv | 12.5 µg/mL | - | - | - | inhibition | 7% |
| Cc1c(N2CC3CCCNC3C2)c(F)cc2c(=O)c(C(=O)O)cn([C@@H]3C[C@@H]3F)c12 | - | 43 (RFP-susceptible) | - | - | - | - | MIC | 0.05 µg/mL |
| CC(O)(c1ccco1)c1nc2ccccc2s1 | - | H37Rv | 6.25 µg/mL | - | - | - | inhibition | 7% |
| CC1(C)C2CCC(CN3C(=O)c4ccccc4C3=O)C1C2 | - | Clinical isolate (isoniazid-resistant) | - | - | - | - | MIC | ≤20 µg/mL |
| CCOC(=O)Cc1cc(C2CCCC2)nc2ccccc12 | - | H37Rv | - | - | - | - | MIC | >6.25 µg/mL |
| CN(C)CC1CCC/C(=C\c2ccc(OC(=O)c3ccccc3)cc2)C1=O | - | H37Rv | 12.5 µg/mL | - | - | - | inhibition | 100% |
| CCCCCCCCCN1C(=O)CC(C)(SCCN)C1=O | - | Clinical isolate (isoniazid-resistant) | - | - | - | - | MIC | ≤20 µg/mL |
| FC(F)(F)c1ccccc1Nc1nc(-c2ccccn2)cs1 | - | H37Rv | - | - | visual reading | - | MIC | 11 µM |
| COc1cccc(/C=C2/NC(=S)NC2=O)c1OC | - | H37Rv | 6.25 µg/mL | - | BACTEC | - | inhibition | 0% |
| CCOC(=O)Cc1ccnc2ccccc12 | - | H37Rv | 6.25 µg/mL | - | - | - | inhibition | 2% |
| O=C1NC(=S)N/C1=C/c1cccc(Oc2ccccc2)c1 | - | H37Rv | - | - | BACTEC | - | EC50 | <6.25 µg/mL |
| CCCCCCCCCC(=O)OCCN1CCN(CCCN2c3ccccc3Sc3ccc(C(F)(F)F)cc32)CC1 | - | H37Rv | 12.5 µg/mL | - | BACTEC | - | inhibition | 98% |
| CCCCCCCCCN1C(=O)CC(SCCNC(=O)c2ccc(C)cc2)C1=O | - | H37Rv | - | - | - | - | MIC | ≤20 µg/mL |
| CNC(=O)C1OCCOCCOC(C(=O)NC)C(C(=O)NC)OCCOCCOC1C(=O)NC | - | H37Rv | 12.5 µg/mL | - | BACTEC | - | inhibition | 15% |
| O=C1NC(NNC(=O)c2ccncc2)=N/C1=C\c1ccc(Cl)cc1 | VERO | H37Rv | - | - | resazurin | - | EC50 | <12.5 µg/mL |
| OCC(O)COCCCCCCCCCCCCCC1C=CCC1 | - | H37Rv | - | - | BACTEC | - | MIC | 1.6 µg/mL |
| O=C(Nc1ccc(Cl)cc1)c1cc(Cl)ccc1OP(=O)(Oc1ccccc1)Oc1ccccc1 | - | My 331/88 | - | 14 d | - | - | MIC | 4 µM |
| O=C1NC(=NCc2ccccc2)N/C1=C\c1ccc(Cl)cc1 | VERO | H37Rv | - | - | resazurin | - | EC50 | <12.5 µg/mL |
| CN(C)CC1CCC/C(=C\c2ccc(OC(=O)c3ccc(Cl)cc3)cc2)C1=O | - | H37Rv | - | - | - | - | EC50 | <12.5 µg/mL |
| COc1ccc(-c2oc3ccc(F)cc3c(=O)c2O)cc1 | - | H37Rv | - | - | - | - | MIC | >12.5 µg/mL |
| CCNC(=O)NNc1ncnc2c1c(-c1ccc(Cl)cc1)cn2-c1ccc(C)cc1 | - | H37Rv | - | - | resazurin | - | MIC | 12.5 µg/mL |
| Cc1cccc(C)c1Nc1nnc(-c2ccccn2)s1 | - | H37Rv | - | - | visual reading | - | MIC | >20 µM |
| NC(=O)c1cnccn1 | - | H37Rv | - | - | - | - | MIC | 30 µg/mL |
| O=C(Nc1ccc(Br)cc1)c1cc(Cl)ccc1OP(=O)(c1ccccc1)c1ccccc1 | - | My 331/88 | - | 7 d | - | - | MIC | 4 µM |
| Cc1cccc(C)c1Nc1nc(-c2ccn[nH]2)cs1 | - | H37Rv | - | - | visual reading | - | MIC | >20 µM |
| Cc1ccc(NC(=O)CC/C(CC(=O)c2ccc(Cl)cc2)=N\NC(=O)C(=O)NN)cc1C | - | H37Rv | 12.5 µg/mL | - | BACTEC | - | inhibition | 21% |
| CCCCCCCCN1C(=O)CC(C)C1=O | - | Clinical isolate (isoniazid-resistant) | - | - | - | - | MIC | ≤20 µg/mL |
| COC(=O)Cc1cc(C2C3CC4CC(C3)CC2C4)nc2ccccc12 | - | H37Rv | 6.25 µg/mL | - | - | - | inhibition | 10% |
| O=C1NC(NNC(=O)c2ccncc2)=N/C1=C\c1ccccc1Cl | - | Ethambutol-resistant | - | - | - | - | MIC | ≤1.56 µg/mL |
| O=C1NC(=S)N/C1=C/c1ccccc1Br | - | H37Rv | - | - | BACTEC | - | EC50 | >6.25 µg/mL |
| O=c1cc(-c2ccc(I)cc2)oc2ccccc12 | - | H37Rv | - | - | - | - | MIC | >12.5 µg/mL |
| C[C@@H]1C(=O)OCC2=C3C[C@@H](CC[C@@]3(C)C=CC2=O)[C@H](C)C(=O)OCC2=C3C[C@H]1CC[C@@]3(C)C=CC2=O | - | H37Rv | - | - | BACTEC | - | MIC bound | >12.5 µg/mL |
| O=C(COc1cnccn1)NNC(=S)Nc1ccc(Cl)cc1Cl | - | H37Rv | - | - | - | - | MIC | 57 µg/mL |
| CCCCCCCCNC1CC(=O)N(CCCCCCCC)C1=O | - | H37Rv | - | - | - | - | MIC | ≤20 µg/mL |
| N[C@@H]1CN(c2c(F)cc3c(=O)c(C(=O)O)cn([C@@H]4C[C@@H]4F)c3c2Cl)CC12CC2 | - | Clinical strain | - | - | resazurin | Gyrase Asp656Tyr/Asn538Asp | MIC | 0.25 µg/mL |
| Cc1cc(O)c2c(c1)OC1(C)CCC3C(C)(C)CCCC34COC2C14 | - | H37Rv | 12.5 µg/mL | - | BACTEC | - | inhibition | 39% |
| CCCCn1c(-c2ccccc2)cs/c1=N\NC(=O)COc1cnccn1 | - | H37Rv | - | - | - | - | MIC | 9.2 µg/mL |
| Nc1cc(O)c(C(=O)O)cc1F | - | H37Rv | - | - | resazurin | Isoniazid-resistant | MIC90 | 2.5 µg/mL |
| CCC1CN(c2c(F)cc3c(=O)c(C(=O)O)cn([C@@H]4C[C@@H]4F)c3c2OC)CCN1 | - | 45 (RFP-resistant) | - | - | - | - | MIC | 4 µg/mL |
| O=c1cc(-c2ccccc2Br)oc2ccccc12 | - | H37Rv | - | - | - | - | MIC | >12.5 µg/mL |
| O=C1CCCC/C1=C\c1ccc(OC(=O)c2ccccc2)cc1 | - | H37Rv | 12.5 µg/mL | - | - | - | inhibition | 66% |
| COc1ccc(OC)c(/C=C2/NC(=S)NC2=O)c1 | - | H37Rv | - | - | BACTEC | - | EC50 | <6.25 µg/mL |
| COC(=O)Cc1cc(C2CCCCC2)nc2ccccc12 | - | H37Rv | 6.25 µg/mL | - | - | - | inhibition | 4% |
| CN(C)CC1CCC/C(=C\c2ccc(OC(=O)/C=C/c3ccccc3)cc2)C1=O | - | H37Rv | 12.5 µg/mL | - | - | - | inhibition | 99% |
| O=C(/C=C/c1ccc(Cl)cc1)c1ccccc1O | - | H37Rv | - | - | - | - | MIC | >12.5 µg/mL |
| Cc1cc(N=Nc2ccc(C(=O)Nc3ccc4cc(S(=O)(=O)O)ccc4c3)cc2)c(N)cc1N | - | H37Rv | - | - | BACTEC | - | MIC | ≥12.5 µg/mL |
| O=C(O)c1cnc2ccccc2c1C1C2CC3CC(C2)CC1C3 | - | H37Rv | 6.25 µg/mL | - | - | - | inhibition | 0% |
| CCCCCCCCCCN1C(=O)C=CC1=O | - | H37Ra | - | - | - | - | MIC | ≤20 µg/mL |
| O=C1NC(=S)N/C1=C/c1ccc(Cl)c(Cl)c1 | - | H37Rv | 6.25 µg/mL | - | BACTEC | - | inhibition | 66% |
| CCCSC(SCCC)C1OC(c2ccccc2)OC2COC(c3ccccc3)OC21 | - | H37Rv | 12.5 µg/mL | - | BACTEC | - | inhibition | -22% |
| CCOC(=O)/C=C/c1ccc(OC)cc1 | - | BTB09-002 | - | - | resazurin | - | MIC | 242 µM |
| CCOc1ccc(/C=C2/NC(=S)NC2=O)cc1 | - | H37Rv | - | - | BACTEC | - | EC50 | <6.25 µg/mL |
| O=C1c2cc(Br)ccc2OP(=O)(c2ccccc2)N1c1ccc(C(F)(F)F)cc1 | - | Praha 1 | - | 21 d | - | - | MIC | 1 µM |
| O=C1NC(=S)N/C1=C/c1cccc(OCc2ccc(Cl)cc2)c1 | - | H37Rv | - | - | BACTEC | - | EC50 | <6.25 µg/mL |
| CCCCCCCCCN1C(=O)CC(NC(C)CCN(CC)CC)C1=O | - | H37Ra | - | - | - | - | MIC | ≤20 µg/mL |
| O=C(Nc1ccc(Cl)c(Cl)c1)c1cc(Cl)ccc1OP(=O)(OCc1ccccc1)OCc1ccccc1 | - | My 331/88 | - | 14 d | - | - | MIC | 32 µM |
| COc1cccc2c1C(=O)c1c(O)c3c(c(O)c1C2=O)C[C@@](O)(C(=O)CSc1nnc(C)s1)C[C@@H]3OC1CC(N)C(O)C(C)O1.Cl | - | H37Rv | 12.5 µg/mL | - | BACTEC | - | inhibition | 30% |
| O=C(/C=C/c1ccccc1)c1cc(Br)ccc1O | - | H37Rv | 12.5 µg/mL | - | - | - | inhibition | 68% |
| CC1=CC(=O)N(c2ccc(N3CCCCC3)cc2)C1=O | - | H37Ra | - | - | - | - | MIC | ≤20 µg/mL |
| O=C1NC(Nc2ccc(Cl)cc2)=N/C1=C\c1ccc(Cl)cc1Cl | - | H37Rv | - | - | - | - | EC50 | <12.5 µg/mL |
| c1ccc(Nc2nc(-c3ccccn3)cs2)cc1 | - | H37Rv | - | - | visual reading | - | MIC | 3.7 µM |
| CC(C)=CCC[C@](C)(O[C@@H]1O[C@H](CO[C@@H]2OC[C@H](O)[C@H](O)[C@H]2O)[C@@H](O)C(O)[C@H]1O)[C@H]1CC[C@]2(C)[C@@H]1[C@H](O)C[C@@H]1[C@@]3(C)CC[C@H](O[C@@H]4O[C@H](CO)[C@@H](O)[C@H](O)[C@H]4O[C@@H]4O[C@H](CO)[C@@H](O)[C@H](O)[C@H]4O)C(C)(C)[C@@H]3CC[C@]12C | - | H37Rv | 12.5 µg/mL | - | BACTEC | - | inhibition | 15% |
| CCOc1cc(O)c(C(=O)/C=C/c2cc(OC)c(OC)c(OC)c2)c(O)c1 | - | H37Rv | 12.5 µg/mL | - | - | - | inhibition | 0% |
| CC(C)Cn1c(-c2ccc(O)cc2)cs/c1=N\NC(=O)COc1cnccn1 | - | H37Rv | - | - | - | - | MIC | 7.1 µg/mL |
| O=C1NC(NNC(=O)c2ccncc2)=N/C1=C\c1ccc(Cl)cc1Cl | - | H37Rv | - | - | resazurin | - | MIC | >12.5 µg/mL |
| O=C1NC(CN2CCC(O)CC2)C(=O)NC1CN1CCC(O)CC1 | - | H37Rv | 12.5 µg/mL | - | BACTEC | - | inhibition | 23% |
| COc1ccc(/C=C/C(=O)c2ccccc2F)cc1 | - | H37Rv | - | - | - | - | MIC | >12.5 µg/mL |
| COc1ccccc1Nc1nc(-c2ccccn2)cs1 | - | H37Rv | - | - | visual reading | - | MIC | 20 µM |
| O=C(COc1cnccn1)N/N=c1\scc(-c2ccc(Br)cc2)n1-c1ccc(Cl)cc1Cl | - | H37Rv | - | - | - | - | MIC | 22 µg/mL |
| C[N+]1([O-])[C@@H]2CC(OC(=O)[C@H](CO)c3ccccc3)C[C@H]1[C@@H]1O[C@@H]12 | - | H37Rv | - | - | BACTEC | - | MIC bound | >12.5 µg/mL |
| CCCCCCCCCN1C(=O)CC(NCCCCCCC)C1=O | - | H37Ra | - | - | - | - | MIC | ≤20 µg/mL |

Lines come from different laboratories, so protocols vary. MIC50, MIC90 and the like: level of inhibition, or share of isolates inhibited. Inhibition is in % at the dose shown (toxicity tests: loss of growth or viability). ECn: concentration that inhibits the pathogen or its effect by n%. MIC bound: limit read from a one-dose screen.